In one data set the test system is ParB2 (Vibrio cholerae). Briefly: DNase I footprinting. To be noted: 100 ng ParB2, hypersensitive sites; footprint: 20 mM Tris-Cl pH 8.0, 125 mM NaCl, 1 mM DTT, room temperature; recombinant protein; protein details: His6 (ParB2-His6); label: 5'-32P; probe letters rebuilt from the primers and the genome.
The subject of data set [1] is RctB (Vibrio cholerae). The data set can be described thus: DNase I footprinting. To be noted: scattered protection at 40-80 ng, broad at 160-640 ng; footprint: 20 mM Tris-Cl pH 8.0, 125 mM NaCl, 1 mM DTT, room temperature; recombinant protein; residues 1-658; protein details: His6 (C-terminal, RctB-His6); label: 5'-32P; probe letters rebuilt from the primers and the genome.

In another data set the test system is RctB + ParB2. The data set can be described thus: DNase I footprinting. The note with it: 100 ng ParB2 plus RctB, additive protection; footprint: 20 mM Tris-Cl pH 8.0, 125 mM NaCl, 1 mM DTT, room temperature; recombinant protein; protein details: His6 (C-terminal, RctB-His6),His6 (ParB2-His6); label: 5'-32P; probe letters rebuilt from the primers and the genome.

Data set [2] deals with RctB (Vibrio cholerae). The data set can be described thus: EMSA. The note with it: EMSA: 20 mM Tris-Cl pH 7.5, 1 mM EDTA, 150 mM NaCl, 12.5 ug/mL poly(dI-dC), 0.1 mg/mL BSA, 10 min room temperature; recombinant protein; residues 1-658; protein details: His6 (C-terminal, RctB-His6); label: 32P 5' end; probe letters rebuilt from the primers and the genome; part of a longer molecule.

Data set [3] relates to RctB[ΔC159] del500-658 (Vibrio cholerae). The data set can be described thus: EMSA. To be noted: affinity similar to wild type, more multimeric complexes; EMSA: 20 mM Tris-Cl pH 7.5, 1 mM EDTA, 150 mM NaCl, 12.5 ug/mL poly(dI-dC), 0.1 mg/mL BSA, 10 min room temperature; recombinant protein; residues 1-499; protein details: His6 (C-terminal); label: 32P 5' end; probe letters rebuilt from the primers and the genome; part of a longer molecule. A general note: Mobility shift assays separate free from complexed probe on a gel.

The exact form of at least one protein or probe is not confirmed.

In the case of “CGTTTAAATAACCCACATATTCTTCGATAAGGAGAAAACATTTTAAATATTACAGTGTCACTTATTTACAATGTAAAGCCACACTTTGAAGCAATGATGAAGAAATAAAAGCGAGCAGTAAGCGGAACGATTAAACCGAGCCACTAAGTTACGGTGAATGCCATTCTGATTGAAATGATGCGCAGGATTCAAGCAAGATGAGAAAATGCCTATCTTTCCTCCAGCGAATAGGTAT (double strand) [rctA footprint probe]”, the binding result in the data set with ParB2 (Vibrio cholerae), in the data set with RctB (Vibrio cholerae) [1] and with RctB + ParB2 was “binds” in each case.

As to “GATCCGTATCACACTTACCGTAATATCACTATAGTTCCAAGAGAATAAAGAAAAAGAGATCATAAATAAAGAAAAATTTGTTGTTTTTAAATAACTGATCTTTCTGATTTAAATGATTAAATATGATTAGAGTGATCTAATGATCTGTGACGATTTTTAGTTCTAATTTATTGTAATTAAAAGAGATTGTTTTTAGCCATTCAGAAGCATGATCATGTATTGATGGAAACCATGATCAATACAAGATCGAAAGCATGATCATTTGTTCCTCTAAGCATGATCATCAGTCAACAGAATCAATGATCAATGTAAGCTTCTAAGCATGATCAAGGTGCTCACACAGTTTATCCACAACCTGAGTG (double strand) [oriCII EMSA probe]”, the binding result (in the data set with RctB (Vibrio cholerae) [2]; in data set [3]) was “binds” in each case.

(Values after article PMC3141006.)
